A mixed list of measured activities; the numbers were collected in NIAID ChemDB.

Shared fields: whole-cell or culture tests; organism: Candida kefyr

Two numbers with a dash give a range or band. A number after MIC or MFC names an inhibition level or a share of isolates. An empty or dashed field is not shown. Lines come from different laboratories, so protocols vary.

compound	strain	method	measure	value
OC(CCn1ccnc1)c1cccc(C(O)c2ccc(Cl)c(Cl)c2)c1	RTCC 1074	broth dilution	MIC	4 µg/mL
CCCCN(Cc1cn(Cc2ccc([N+](=O)[O-])cc2)nn1)CC(O)(Cn1cncn1)c1ccc(F)cc1F	-	-	MIC80	0.0625 µg/mL
O=C(CCn1ccnc1)c1ccc2ccccc2c1	RTCC 1074	broth dilution	MIC	32 µg/mL
C[C@H]1[C@H](O)[C@@H](C)/C=C/C=C/C=C/C=C/C=C/C=C/C=C/[C@H](O[C@@H]2O[C@H](C)[C@@H](O)[C@H](N)[C@@H]2O)C[C@@H]2O[C@](O)(C[C@@H](O)C[C@@H](O)CC[C@H](O)[C@@H](O)C[C@@H](O)CC(=O)O[C@H]1C)C[C@H](O)[C@H]2C(=O)O	ATCC 2512	broth dilution / absorbance	MIC99	12.5 µM
O=C(CCn1ccnc1)c1ccc(Cl)cc1	RTCC 1074	broth dilution	MIC	8 µg/mL
CCCCN(Cc1cn(Cc2ccc(Cl)cc2Cl)nn1)CC(O)(Cn1cncn1)c1ccc(F)cc1F	-	-	MIC80	16 µg/mL
CC(=O)NNC(=O)NCCCCCCNC(=O)NNC(C)=O	-	-	MIC	7.5 µg/mL
CCOc1ccc2nc3cc(N=C4NC(=O)/C(=C\c5ccc([N+](=O)[O-])o5)S4)ccc3c(N)c2c1	ATCC 8614	broth dilution	MFC	125 µg/mL
Cc1n[nH]c(=O)n1CCCCCCn1c(C)n[nH]c1=O	-	-	MIC	7.5 µg/mL
O=C(CCn1ccnc1)c1ccc(Br)cc1	RTCC 1019	broth dilution	MIC	4 µg/mL
CCCCN(Cc1cn(Cc2cccc(F)c2)nn1)CC(O)(Cn1cncn1)c1ccc(F)cc1F	-	-	MIC80	0.0156 µg/mL
O=C(NCCCCCCNC(=O)NNC(=O)c1ccccc1)NNC(=O)c1ccccc1	-	-	MIC	7.5 µg/mL
CCCCN(Cc1cn(Cc2ccccc2[N+](=O)[O-])nn1)CC(O)(Cn1cncn1)c1ccc(F)cc1F	-	-	MIC80	16 µg/mL
OC(CCn1ccnc1)c1ccc(Br)cc1	RTCC 1019	broth dilution	MIC	>64 µg/mL
CCCCN(Cc1cn(Cc2ccc(F)cc2)nn1)CC(O)(Cn1cncn1)c1ccc(F)cc1F	-	-	MIC80	0.625 µg/mL
CCCCCOc1ccc(-c2cc(-c3ccc(C(=O)N[C@H]4C[C@@H](O)[C@@H](O)NC(=O)[C@@H]5[C@@H](O)[C@@H](C)CN5C(=O)[C@H]([C@H](O)CC(N)=O)NC(=O)[C@H]([C@H](O)[C@@H](O)c5ccc(O)c(OS(=O)(=O)O)c5)NC(=O)[C@@H]5C[C@@H](O)CN5C(=O)[C@H]([C@@H](C)O)NC4=O)cc3)no2)cc1	-	-	MIC50	0.015–0.5 µg/mL

Repeating the first 2 entries:

compound	strain	method	measure	value
OC(CCn1ccnc1)c1cccc(C(O)c2ccc(Cl)c(Cl)c2)c1	RTCC 1074	broth dilution	MIC	4 µg/mL
CCCCN(Cc1cn(Cc2ccc([N+](=O)[O-])cc2)nn1)CC(O)(Cn1cncn1)c1ccc(F)cc1F	-	-	MIC80	0.0625 µg/mL